The values below come from publication PMC8002998.

Negatives hold for the conditions tested. At least one verdict rests on a figure or table, not on a statement of the authors. Tags and fusion partners may be left off the protein sequences shown.

The data set has as its target T1, OhrR-C (chromosomal OhrR) (Acinetobacter baumannii ATCC 19606) (UniProt A0A077GRS4).
T1 sequence (looked up, limits assumed): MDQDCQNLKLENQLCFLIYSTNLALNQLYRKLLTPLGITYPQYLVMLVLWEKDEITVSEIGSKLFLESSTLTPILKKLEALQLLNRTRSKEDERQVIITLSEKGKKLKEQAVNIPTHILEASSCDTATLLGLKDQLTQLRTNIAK
The experiment in a line: EMSA. As to conditions: 600 nM OhrR-C, 50 nM DNA, 20 mM Tris-HCl pH 7.5, 100 mM MgCl2, 150 mM KCl, 50 mM EDTA, 12.5% glycerol, 250 uM DTT, 830 ng/mL poly(dI-dC), 250 ng/mL BSA, room temperature, recombinant protein, protein details: His tag implied (pQE80L BamHI/KpnI, Ni-affinity).

Take “TACGATATATTTGCATTCAATTTAATTTAGGAATAAAAAG (double strand) [Pohr-2]”: the binding result is on record as “no binding”. As to “ACCAATTTTTTTACAAAATTGACTTGTTAAAATAATTAAGTCGTG (double strand) [Pohr-1]”, the binding result is reported as “no binding”.
